Measurements reported in PubChem BioAssay AID504761 (Drosophila RNAi Screening Center, 2011).

Assay: 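Insect host genes that dengue virus relies on to spread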 (primary screen)
Cells: D.Mel-2 cells from Drosophila
Reagents: long dsRNA against Drosophila genes
Challenge: infection with dengue virus type 2; dose and infection time not stated
Detection: 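Per well on two replicate plates, imaging gave the percent of cells positive for viral envelope protein, ranked by infection, and a nuclear count of cells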
Direction: infection score: higher = more virus-infected cells; cell count: higher = more cells in the well
Active means: 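Very low infection ranking in both replicate wells (chance probability at most 0.065), then a retest showing infection dropped 1.5-fold or more at p below 0.05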
Meaning of the calls: active = confirmed: knock-down lowers infection; inactive = not picked or not confirmed
In all, the deposit lists about 22,000 reagents; below is a random part of those that have a named target and a result. Of all reagents, 116 (0.52%) were called active. 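Calls depend on retest data that are not deposited; infection was ranked per plate without normalising between plates; the unit of the infection score is not given.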 Raw values are not corrected between plates. A plus sign joins genes that one reagent is predicted to hit. Not given: the amount of reagent, the time to read-out.

Target gene | DRSC id | infection score, replicate 1 | infection score, replicate 2 | cell count, replicate 1 | cell count, replicate 2 | activity call
Topors | DRSC06531 | 7.33 | 7.55 | 5266 | 6268 | inactive
Rab4 | DRSC07524 | 15.3 | 17.1 | 5501 | 3998 | inactive
Alg11 | DRSC11647 | 27.5 | 13.7 | 6048 | 6548 | inactive
mkg-p + Tpt | DRSC10777 | 4.81 | 9.5 | 6365 | 5504 | inactive
inaF-B | DRSC18903 | 2.66 | 6.87 | 6621 | 6633 | inactive
CG13360 | DRSC18536 | 4.43 | 15.4 | 6114 | 6227 | inactive
CG13360 | DRSC28479 | 2.19 | – | 2009 | 403 | inactive
RpS11 | DRSC07289 | 9.33 | 4.35 | 6798 | 6642 | inactive
RpS11 | DRSC22700 | 12.4 | 16.3 | 3475 | 2558 | inactive
CG4041 | DRSC18339 | 5.33 | 11.3 | 5459 | 5432 | inactive
CG4041 | DRSC26992 | 10.3 | 13.5 | 6297 | 5885 | inactive

The list goes on, starting with the last 2 of the part before.
Target gene | DRSC id | infection score, replicate 1 | infection score, replicate 2 | cell count, replicate 1 | cell count, replicate 2 | activity call
CG4041 | DRSC18339 | 5.33 | 11.3 | 5459 | 5432 | inactive
CG4041 | DRSC26992 | 10.3 | 13.5 | 6297 | 5885 | inactive
Vti1b | DRSC16283 | 1.27 | 2.11 | 6007 | 6534 | inactive
Vti1b | DRSC16284 | 2.93 | 4.66 | 6487 | 6055 | inactive
CG17994 | DRSC04877 | 5.3 | 18.5 | 6814 | 5268 | inactive
Ubr1 | DRSC20148 | 1.21 | 1.65 | 5698 | 5511 | inactive
Lamp1 | DRSC03727 | – | 19.1 | 470 | 4813 | inactive
CG17186 | DRSC15180 | 10.2 | 15.1 | 1497 | 3004 | inactive
CG17186 | DRSC27612 | 2.61 | 5.94 | 6851 | 6716 | inactive
CG3760 | DRSC04415 | 1.44 | 3.4 | 6192 | 6264 | inactive
CG33284 | DRSC22905 | 3.19 | 16.9 | 6394 | 6718 | inactive
CG33284 | DRSC29777 | 9.38 | 20.2 | 5792 | 5502 | inactive
CG6287 | DRSC02947 | 15.5 | 10.6 | 5901 | 6504 | inactive
CG6287 | DRSC27507 | 6.87 | 15.9 | 6433 | 6660 | inactive
